Tested on: Pseudoperonospora cubensis
Test: Control test of plant disease caused by Pseudoperonospora cubensis (cucumber, foliage spray; Test Examples 2 and 7)
Assay type: in vivo
[1] = cucumber foliage spray, effective component 50 ppm, degree of disease after 5 days

Row | SMILES | Evaluation [1] | Evaluation (Test Example 7, same method as Test Example 2, Table 98)
1 | Cc1snnc1/C(=N\OCc1csc(NC(=O)C(C)C)n1)c1cccc(Cl)c1 [13-(a)-2] | B (grade “B” was selected when the number of diseased plants, which include plants with lesions or withered plants, is around 10% among the total numbers of plants) | 
2 | Cc1snnc1C(=NOCc1csc(N)n1)c1ccccc1 [8-(a)-1] | B (grade “B” was selected when the number of diseased plants, which include plants with lesions or withered plants, is around 10% among the total numbers of plants) | 
3 | Cc1snnc1/C(=N\OCc1csc(NC(=O)C(C)C)n1)c1ccc(Cl)c(Cl)c1 [13-(a)-8] |  | B (grade “B” was selected when the number of diseased plants, which include plants with lesions or withered plants, is around 10% among the total numbers of plants)

From US6340697B1, “Oxime derivatives and agricultural chemicals containing the same” (Dainippon Ink and Chemicals, Inc., priority 1997, dated 2002)
